## Results of single-concentration screens

Source: ChEMBL document CHEMBL3988442, “University of Dundee, Small-Polar-MMV Screening Library” (2021).

A: 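Phenotypic screen: M. tuberculosis growth, glucose 7H9 medium, 3 days; the read-out is not stated. Compounds at 500 µM. The record gives no direction; compounds that gave an IC50 in retests scored well above the rest, so higher reads as more growth inhibition. Of about 18,000 compounds tested this way, about 1,400 (7.9%) reached 50% or more in at least one test.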
B: 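Phenotypic screen: M. tuberculosis growth, cholesterol and DPPC medium, 4 days; the read-out is not stated. Compounds at 500 µM. Higher reads as more growth inhibition (inferred: compounds with an IC50 in retests scored well above the rest). Of about 18,000 compounds tested this way, about 900 (5%) reached 50% or more in at least one test.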

Values are the deposited “Percent Effect”, in %.
How 0% and 100% were set is not recorded. Most values in the screen are low, and negative values occur.
Many other results are left out here, so strong results are more common than in the screen.
A dash means the value is not listed here; it may have been measured.

Result for Cc1n[nH]cc1CNc1ccc(F)cc1 was B: 14.88%.
Result for Cc1ccccc1OCC(O)CN1CCC[C@@H]1CO (stereo partly drawn) was A: 52.27%.
Result for CCN(CC)c1ccc(NC(=O)N(C)C)cn1 was A: 4.538%; B: -9.388%.
Result for CN(Cc1ccoc1)C(=O)CN(C)C1CCS(=O)(=O)C1 (stereo not drawn) was B: -2.174%.
Result for CC(C)[C@H](N)C(=O)N1CCN(C2CC2)C(=O)C1 was A: 2.876%.
Result for Cc1nscc1C(=O)Nc1ccc(C(N)=O)cc1F was B: 11.65%.
Result for N#Cc1ccc(C2NC(=O)c3cccnc3N2)cc1 (stereo not drawn) was A: -8.708%.
Result for CN1C(=O)c2ccc(C(=O)NC3CC3)cc2C1=O was B: 61.33%.
Result for CCC(C)(C)NC(=O)c1ccn(-c2ccccc2F)n1 was A: 81.41%; B: 81.48%.
Result for O=C(CC1OCCc2ccccc21)N1CCSC1 (stereo not drawn) was B: 22.72%.
Result for O=C(CCc1cc(F)ccc1Br)N1CC[S+]([O-])CC1 was A: 40.63%.
Result for CC(C)Cn1cc(NC(=O)N2CCC(O)C2)cn1 (stereo not drawn) was B: -27.37%.
Result for CNC(=O)c1ccc(S(=O)(=O)NCCCOC)cc1 was B: 4.904%.
Result for NCc1ccc(N2CCOCC2)c(F)c1 was A: 14.61%.
Result for O=S(=O)(NC1CC1)c1cccs1 was A: 25.05%.
Result for COCCN1CCNCC1=O was B: -10.96%.
Result for CC(N)c1nc(-c2ccc3c(c2)OCO3)c[nH]1 (stereo not drawn) was A: 58.2%; B: -5.069%.
Result for CN(C)C(=O)c1csc(-c2ccccc2)n1 was A: 52.2%; B: 52.15%.
Result for CCNC(=O)CCN1C[C@H](C2CC2)[C@@H](N)C1 was B: 4.508%.
Result for CCn1cc(CNC2(C(=O)OC)CC2)cn1 was A: 8.928%.
Result for CC(=O)Nc1nc(C(=O)NCCc2cccnc2)cs1 was A: -3.601%; B: -19%.
Result for O=C1CN(CCOc2ccc3ccccc3c2)CCN1 was A: 32.45%.
Result for Cc1ccnc(NC(=O)N2CCCC(CO)C2)c1 (stereo not drawn) was A: 17.51%.
Result for NCc1ccc2c(c1)CNC2 was A: -13.11%.
Result for NCc1cccc(-c2ccccn2)n1 was A: 101.7%.
Result for O=C(c1ccc2ncsc2c1)N1CCOCC(CO)C1 (stereo not drawn) was A: 22.25%.
Result for CC(C)C(=O)N1CCC(C(N)=O)(c2ccccc2)CC1 was B: -12.45%.
Result for Cc1nn(C)c(Cl)c1CN(CC(N)=O)C(C)C was A: 37.74%.
Result for CC(=O)NCCNC(=O)c1cc(-c2ccco2)on1 was B: -5.536%.
Result for CCC(N)(CC)CNS(=O)(=O)N(C)C1CCCCC1 was A: 30.33%.
Result for Cc1ccc(C(C)NC(=O)Nc2nccn(C)c2=O)o1 (stereo not drawn) was A: 50.49%.
Result for CC1(O)C(=O)Nc2ccccc21 (stereo not drawn) was B: -30.22%.
Result for CCn1nc(C(C)C)cc1C(=O)N1CCC(N)C1 (stereo not drawn) was A: 5.896%.
Result for Brc1nnnn1-c1ccc2c(c1)OCCO2 was A: 6.426%.
Result for CC(C)n1nccc1[C@H]1OCC[C@@H]1N was A: 15.77%.
Result for CCc1cc(=O)[nH]c(C2(N)CCCC2)n1 was B: -4.162%.
Result for CCCNCCN1CCN(CC)CC1 was A: -2.581%.
Result for Cc1nn(CC(=O)N[C@@H]2CCNC[C@H]2O)c(C)c1C was B: -17.26%.
Result for O=C(COc1ccc(C(F)(F)F)cc1)NCCCO was B: 29.73%.
Result for COc1ccc(-c2noc(C(C)n3ccnc3)n2)cn1 (stereo not drawn) was A: 63.18%; B: 82.82%.
Result for CC1C(=O)NCCN1C(=O)c1ccc(F)c(C#N)c1 (stereo not drawn) was A: -8.115%.
Result for CC(C)OC(C)C(=O)NCCNc1cccnc1 (stereo not drawn) was B: 11.53%.
Result for Cc1cc(C(=O)NCC(O)c2ccccc2Cl)no1 (stereo not drawn) was A: 57.8%.
Result for OCCNCc1ccc(F)cc1C(F)(F)F was A: 2.293%.

5 of the entries, repeated:

structure	A	B
O=S(=O)(NC1CC1)c1cccs1	25.05	-
CC(=O)NCCNC(=O)c1cc(-c2ccco2)on1	-	-5.536
CCn1nc(C(C)C)cc1C(=O)N1CCC(N)C1 (stereo not drawn)	5.896	-
CC1(O)C(=O)Nc2ccccc21 (stereo not drawn)	-	-30.22
COCCN1CCNCC1=O	-	-10.96